## Potato spindle tuber viroid, loop 6: variant abundance in plants

From the data files of Wu et al. 2024, doi:10.1371/journal.ppat.1012142.

The pool varies loop 6 of the PSTVd intermediate strain in the pattern UNNNCGNNNG; wild type is UGACCGCGAG (upper and lower strand joined, each 5' to 3', the first 5 letters being the upper strand, closing pairs included).

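A pool of all variants was put on leaves of three Nicotiana benthamiana plants. Progeny were sequenced from the inoculated region (day 5), the margin of the inoculated leaf (day 10) and systemic leaves (day 12).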

Values are reads per thousand in the sample; higher means more abundant, 0 means not found. Each site shows the three plants. "Pool" is the share in the plasmid pool used as inoculum, on the same scale. The inoculated region was read from the minus strand, the other sites from the plus strand. IR is the inoculated region, LM the leaf margin, Sys the systemic leaves. With 36,220-57,551 reads a sample, very low values are single reads. For reference, wild type rose from 20.7 per thousand in the pool to 195, 198, 203 (inoculated region), 629, 591, 734 (leaf margin) and 942, 870, 868 (systemic leaves). The authors trace changes outside the varied positions to PCR and sequencing errors or to mutation in the plant; presence does not show that a variant is infectious alone.

sequence,pool,IR,LM,Sys
UGACCGGCAG,0.235,0.104 0.198 0.0922,0.387 0.252 0.0232,0.0180 0.0808 0.185
UGACCGGCCG,0.157,0.174 0.126 0.166,0.331 0.0252 1.02,0 0 0.0615
UGACCGGCGA,0.0261,0.0348 0.0359 0.0184,0.0828 0.328 0.0928,0.234 0.121 0.226
UGACCGGCGG,0.261,0.191 0.269 0.148,0.248 0.555 0.116,0.0180 0 0.164
UGACCGGCGU,0.0131,0 0 0,0 0 0,0 0 0
UGACCGGCUG,0.248,0.122 0.198 0.184,0.221 0.858 0.0464,0 0 0.0615
UGACCGGGAG,0.144,0.382 0.467 0.295,0.690 0.782 0.464,0.413 0.525 0.800
UGACCGGGCG,0.118,0.156 0.144 0.148,0.138 0 0,0.0898 0.0808 0
UGACCGGGGG,0.0392,0.122 0.0359 0.184,0.221 0.0757 0.0232,0 0.0202 0.0205
UGACCGGGUG,0.248,0.295 0.251 0.166,0.387 0.126 0.0928,0.162 0.0202 0.267
UGACCGGUAG,0.275,0.278 0.251 0.203,0.469 0.328 0.116,0.0359 0.424 0.328
UGACCGGUCG,0.431,0.0869 0.287 0.240,0.276 0.404 0.0928,0.0898 0.0606 0.246
UGACCGGUGG,0.366,0.382 0.234 0.314,0.359 3.35 0.278,1.17 0.0808 0.205
UGACCGGUUG,0.405,0.330 0.198 0.258,0 0.933 0.0928,0.162 0.0808 0.267
UGACCGUACG,0.327,0.0869 0.251 0.277,0.387 0.151 0.0232,0.0180 0.0606 0.287
UGACCGUAGG,0.327,0.261 0.323 0.148,0.580 0.858 0,0.0539 0.101 0.123
UGACCGUAUG,0.458,0.556 0.539 0.424,94.1 3.10 0.487,0.0898 1.17 0.390
UGACCGUCAG,0.484,0.295 0.198 0.166,0.110 2.60 0.0232,0.0359 0.0202 0.349
UGACCGUCCG,0.261,0.226 0.180 0.203,0.221 0.353 0.0232,0.0180 0 0.103
UGACCGUCGG,0.405,0.174 0.323 0.332,0.883 2.40 0.0696,0.0359 0.0202 0.185
UGACCGUCUG,0.458,0.278 0.431 0.350,0.193 1.01 0.0464,0.0719 0.323 0.246
UGACCGUGAG,0.340,0.539 0.539 0.756,0.966 0.908 0.441,0.539 0.707 0.841
UGACCGUGCG,0.209,0.191 0.216 0.129,0.469 0.378 0,0.0359 0.0606 0.164
UGACCGUGGG,0.105,0.139 0.216 0.0553,0.359 0.0252 0.0232,0.0180 0.0808 0.0410
UGACCGUGUG,0.484,0.295 0.305 0.295,0.221 0.656 0.139,0.198 0.101 0.164
UGACCGUUAG,0.863,0.313 0.485 0.498,0.359 0.933 0.0928,0.198 0.0808 0.451
UGACCGUUAU,0.0131,0 0 0,0 0 0,0 0.101 0.0410
UGACCGUUCG,0.222,0.261 0.323 0.148,0.801 0.782 0.0696,0.0719 0.283 0.287
UGACCGUUGG,0.458,0.174 0.216 0.221,0 1.59 0,0.0719 2.08 0.267
UGACCGUUUG,0.641,0.348 0.341 0.295,1.24 0.0504 0.232,0.0898 0.162 0.164
UGACCUGUUG,0.0131,0 0 0,0 0 0,0 0 0
UGACGGAACG,0.0131,0 0 0,0 0 0,0 0 0
UGACGGACGG,0.0131,0 0 0,0 0 0,0 0 0
UGACGGCGGG,0.0131,0 0 0,0 0 0,0 0 0
UGACGGGUGG,0.0131,0 0 0,0 0 0,0 0 0
UGACGGUUCG,0.0131,0 0 0,0 0 0,0 0 0
UGACUGACGG,0.0261,0 0 0,0 0 0,0 0 0
UGACUGGAAG,0.0131,0 0 0,0 0 0,0 0 0
UGACUGGCCG,0.0131,0 0 0,0 0 0,0 0 0
UGAGAGAGAG,0.0131,0 0 0,0 0 0,0 0 0
UGAGCCUACG,0.0131,0 0 0,0 0 0,0 0 0
UGAGCGAAAG,0.0915,0.174 0.0539 0.0738,0 0 0,0 0 0
UGAGCGAACG,0.170,0.174 0.126 0.129,0 0 0,0 0 0
UGAGCGAAGG,0.0915,0.0695 0.108 0.0922,0 0 0.0232,0 0 0
UGAGCGAAUG,0.275,0.156 0.180 0.0184,0 0 0.0232,0 0 0
UGAGCGACAG,0.261,0.139 0.144 0.0922,0 0 0,0 0 0
UGAGCGACCG,0.196,0.122 0.0359 0.0553,0 0 0,0 0 0
UGAGCGACGG,0.235,0.104 0.126 0.148,0 0 0,0 0 0
UGAGCGACUG,0.353,0.191 0.126 0.0922,0 0 0.0232,0 0 0
UGAGCGAGAG,0.144,0.747 0.629 0.498,0.0552 0.0252 0.0696,0 0 0
UGAGCGAGCG,0.196,0.122 0.0898 0.111,0 0 0.0232,0 0 0
UGAGCGAGGG,0.248,0.104 0.0898 0.0553,0 0 0,0 0 0
UGAGCGAGUG,0.235,0.122 0.108 0.0922,0 0 0,0 0 0
UGAGCGAUAG,0.340,0.156 0.126 0.111,0 0 0.116,0 0 0
UGAGCGAUCG,0.314,0.139 0.0719 0.0922,0 0 0,0 0 0
UGAGCGAUGG,0.248,0.104 0.108 0.0738,0 0 0.0232,0 0 0
UGAGCGAUUG,0.327,0.0174 0.0719 0.0553,0 0 0.0232,0 0 0
UGAGCGCAAG,0.0654,0.869 0.629 0.756,0 0.177 0.255,0 0 0
UGAGCGCACG,0.131,0.156 0.108 0.0369,0 0 0,0 0 0
UGAGCGCAGG,0.288,0.174 0.0359 0.0553,0 0 0,0 0 0
UGAGCGCAUG,0.105,0.0869 0.0898 0.0553,0 0 0.0232,0 0 0
UGAGCGCCAG,0.235,0.0348 0.0719 0.148,0 0 0,0 0 0
UGAGCGCCCG,0.288,0.122 0.0359 0.0922,0 0 0,0 0 0
UGAGCGCCGG,0.248,0.0695 0.0719 0.0369,0.0276 0 0.0232,0 0 0
UGAGCGCCUG,0.288,0.122 0.108 0.111,0.0276 0 0,0 0 0

The opening 5 entries, copied out:

sequence,pool,IR,LM,Sys
UGACCGGCAG,0.235,0.104 0.198 0.0922,0.387 0.252 0.0232,0.0180 0.0808 0.185
UGACCGGCCG,0.157,0.174 0.126 0.166,0.331 0.0252 1.02,0 0 0.0615
UGACCGGCGA,0.0261,0.0348 0.0359 0.0184,0.0828 0.328 0.0928,0.234 0.121 0.226
UGACCGGCGG,0.261,0.191 0.269 0.148,0.248 0.555 0.116,0.0180 0 0.164
UGACCGGCGU,0.0131,0 0 0,0 0 0,0 0 0